From patent US20040229298A1

What was measured:
[1] = target: T1, HPV16 E6 PDZ ligand peptide (biotinylated C-terminal peptide of the E6 protein of HPV 16) (human papillomavirus 16); assay: G assay ELISA, signal over GST-only well
[2] = target: T1, HPV16 E6 PDZ ligand peptide …; assay: G assay ELISA, immobilised GST-PDZ, 10 uM biotinylated peptide

| Binder | OD S/N [1] | Ave OD [2] |
| --- | --- | --- |
| GST-KIAA1095 PDZ domain 1 fusion protein (protein) MSPILGYWKIKGLVQPTRLLLEYLEEKYEEHLYERDEGDKWRNKKFELGLEFPNLPYYIDGDVKLTQSMAIIRYIADKHNMLGGCPKERAEISMLEGAVLDIRYGVSRIAYSKDFETLKVDFLSKLPEMLKMFEDRLCHKTYLNGDHVTHPDFMLYDALDVVLYMDPMCLDAFPKLVCFKKRIEAIPQIDKYLKSSKYIAWPLQGWQATFGGGDHPPKSDLIEGRTLVLHRDSGSLGFNIIGGRPSVDNHDGSSSEGIFVSKIVDSGPAAKEGGLQIHDRIIEVNGRDLSRATHDQAVEAFKTAKEPIVVQVLRRT | 13.1 and 7.96 | 2.7 A450 nm and 1.71 A450 nm |
| GST-KIAA0147 PDZ domain 3 fusion protein (protein) MSPILGYWKIKGLVQPTRLLLEYLEEKYEEHLYERDEGDKWRNKKFELGLEFPNLPYYIDGDVKLTQSMAIIRYIADKHNMLGGCPKERAEISMLEGAVLDIRYGVSRIAYSKDFETLKVDFLSKLPEMLKMFEDRLCHKTYLNGDHVTHPDFMLYDALDVVLYMDPMCLDAFPKLVCFKKRIEAIPQIDKYLKSSKYIAWPLQGWQATFGGGDHPPKSDLIEGREIRLPRAGGPLGLSIVGGSDHSSHPFGVQEPGVFISKVLPRGLAARSGLRVGDRILAVNGQDVRDATHQEAVSALLRPCLELSLLVRRDP | 11.8 and 4.35 | 2.08 A450 nm and 1.07 A450 nm |
| GST-TIP1 PDZ domain 1 fusion protein (protein) MSPILGYWKIKGLVQPTRLLLEYLEEKYEEHLYERDEGDKWRNKKFELGLEFPNLPYYIDGDVKLTQSMAIIRYIADKHNMLGGCPKERAEISMLEGAVLDIRYGVSRIAYSKDFETLKVDFLSKLPEMLKMFEDRLCHKTYLNGDHVTHPDFMLYDALDVVLYMDPMCLDAFPKLVCFKKRIEAIPQIDKYLKSSKYIAWPLQGWQATFGGGDHPPKSDLIEGRQRVEIHKLRQGENLILGFSIGGGIDQDPSQNPFSEDKTDKGIYVTRVSEGGPAEIAGLQIGDKIMQVNGWDMTMVTHDQARKRLTKRSEEVVRLLVTRQSLQK | 8.24 and 5.67 | 1.62 A450 nm and 0.576 A450 nm |
| GST-KIAA0807 PDZ domain 1 fusion protein (protein) MSPILGYWKIKGLVQPTRLLLEYLEEKYEEHLYERDEGDKWRNKKFELGLEFPNLPYYIDGDVKLTQSMAIIRYIADKHNMLGGCPKERAEISMLEGAVLDIRYGVSRIAYSKDFETLKVDFLSKLPEMLKMFEDRLCHKTYLNGDHVTHPDFMLYDALDVVLYMDPMCLDAFPKLVCFKKRIEAIPQIDKYLKSSKYIAWPLQGWQATFGGGDHPPKSDLIEGRISALGSMRPPIIIHRAGKKYGFTLRAIRVYMGDSDVYTVHHMVWHVEDGGPASEAGLRQGDLITHVNGEPVHGLVHTEVVELILKSGNKVAISTTPLENSS | 23.2 and 11.4 | 3.91 A450 nm and 1.69 A450 nm |
| GST-TIP 43 #264.1 PDZ domain 1 fusion protein (protein) MSPILGYWKIKGLVQPTRLLLEYLEEKYEEHLYERDEGDKWRNKKFELGLEFPNLPYYIDGDVKLTQSMAIIRYIADKHNMLGGCPKERAEISMLEGAVLDIRYGVSRIAYSKDFETLKVDFLSKLPEMLKMFEDRLCHKTYLNGDHVTHPDFMLYDALDVVLYMDPMCLDAFPKLVCFKKRIEAIPQIDKYLKSSKYIAWPLQGWQATFGGGDHPPKSDLIEGRISNQKRGVKVLKQELGGLGISIKGGKENKMPILISKIFKGLAADQTQALYVGDAILSVNGADLRDATHDEAVQALKRAGKEVLLEVKYMREATPYV | 8.5 and 8.76 | 1.88 A450 nm and 0.915 A450 nm |
| GST-KIAA1526 #125.1 PDZ domain 1 fusion protein (protein) MSPILGYWKIKGLVQPTRLLLEYLEEKYEEHLYERDEGDKWRNKKFELGLEFPNLPYYIDGDVKLTQSMAIIRYIADKHNMLGGCPKERAEISMLEGAVLDIRYGVSRIAYSKDFETLKVDFLSKLPEMLKMFEDRLCHKTYLNGDHVTHPDFMLYDALDVVLYMDPMCLDAFPKLVCFKKRIEAIPQIDKYLKSSKYIAWPLQGWQATFGGGDHPPKSDLIEGRLVSLRRAKAHEGLGFSIRGGSEHGVGIYVSLVEPGSLAEKEGLRVGDQILRVNDKSLARVTHAEAVKALKGSKKLVLSVYSAGR | 6.69 and 3.57 | 1.38 A450 nm and 0.766 A450 nm |
| GST-KIAA0147 PDZ domain 1 fusion protein (protein) MSPILGYWKIKGLVQPTRLLLEYLEEKYEEHLYERDEGDKWRNKKFELGLEFPNLPYYIDGDVKLTQSMAIIRYIADKHNMLGGCPKERAEISMLEGAVLDIRYGVSRIAYSKDFETLKVDFLSKLPEMLKMFEDRLCHKTYLNGDHVTHPDFMLYDALDVVLYMDPMCLDAFPKLVCFKKRIEAIPQIDKYLKSSKYIAWPLQGWQATFGGGDHPPKSDLIEGRTLTILRQTGGLGISIAGGKGSTPYKGDDEGIFISRVSEEGPAARAGVRVGDKLLEVNGVALQGAEHHEAVEALRGAGTAVQMRVWRER | 21.3 and 8.71 | 3.76 A450 nm and 2.15 A450 nm |
| GST-DLG2 PDZ domain 3 fusion protein (protein) MSPILGYWKIKGLVQPTRLLLEYLEEKYEEHLYERDEGDKWRNKKFELGLEFPNLPYYIDGDVKLTQSMAIIRYIADKHNMLGGCPKERAEISMLEGAVLDIRYGVSRIAYSKDFETLKVDFLSKLPEMLKMFEDRLCHKTYLNGDHVTHPDFMLYDALDVVLYMDPMCLDAFPKLVCFKKRIEAIPQIDKYLKSSKYIAWPLQGWQATFGGGDHPPKSDLIEGRKVVLHKGSTGLGFNIVGGEDGEGIFVSFILAGGPADLSGELQRGDQILSVNGIDLRGASHEQAAAALKGAGQTVTIIAQYQ | 20.4 and 8.53 | 3.43 A450 nm and 1.27 A450 nm |
| GST-KIAA1634 PDZ domain 1 fusion protein (protein) MSPILGYWKIKGLVQPTRLLLEYLEEKYEEHLYERDEGDKWRNKKFELGLEFPNLPYYIDGDVKLTQSMAIIRYIADKHNMLGGCPKERAEISMLEGAVLDIRYGVSRIAYSKDFETLKVDFLSKLPEMLKMFEDRLCHKTYLNGDHVTHPDFMLYDALDVVLYMDPMCLDAFPKLVCFKKRIEAIPQIDKYLKSSKYIAWPLQGWQATFGGGDHPPKSDLIEGRPSQLKGVLVRASLKKSTMGFGFTIIGGDRPDEFLQVKNVLKDGPAAQDGKIAPGDVIVDINGNCVLGHTHADVVQMFQLVPVNQYVNLTLCRGYPLPDDSED | 19 and 19.4 | 3.46 A450 nm and 3.34 A450 nm |
| GST-Outer Membrane PDZ domain 1 fusion protein (protein) MSPILGYWKIKGLVQPTRLLLEYLEEKYEEHLYERDEGDKWRNKKFELGLEFPNLPYYIDGDVKLTQSMAIIRYIADKHNMLGGCPKERAEISMLEGAVLDIRYGVSRIAYSKDFETLKVDFLSKLPEMLKMFEDRLCHKTYLNGDHVTHPDFMLYDALDVVLYMDPMCLDAFPKLVCFKKRIEAIPQIDKYLKSSKYIAWPLQGWQATFGGGDHPPKSDLIEGRLLTEEEINLTRGPSGLGFNIVGGTDQQYVSNDSGIYVSRIKENGAAALDGRLQEGDKILSVNGQDLKNLLHQDAVDLFRNAGYAVSLRVQHRLQVQNGIHS | 11.4 and 6.25 | 2.39 A450 nm and 1.36 A450 nm |
| GST-KIAA0973 #288.2 PDZ domain 1 fusion protein (protein) MSPILGYWKIKGLVQPTRLLLEYLEEKYEEHLYERDEGDKWRNKKFELGLEFPNLPYYIDGDVKLTQSMAIIRYIADKHNMLGGCPKERAEISMLEGAVLDIRYGVSRIAYSKDFETLKVDFLSKLPEMLKMFEDRLCHKTYLNGDHVTHPDFMLYDALDVVLYMDPMCLDAFPKLVCFKKRIEAIPQIDKYLKSSKYIAWPLQGWQATFGGGDHPPKSDLIEGRGLRSPITIQRSGKKYGFTLRAIRVYMGDTDVYSVHHIVWHVEEGGPAQEAGLCAGDLITHVNGEPVHGMVHPEVVELILKSGNKVAVTTTPFE | 16.4 and 10.1 | 3.85 A450 nm and 2.83 A450 nm |
| GST-DLG1 PDZ domain 2 fusion protein (protein) MSPILGYWKIKGLVQPTRLLLEYLEEKYEEHLYERDEGDKWRNKKFELGLEFPNLPYYIDGDVKLTQSMAIIRYIADKHNMLGGCPKERAEISMLEGAVLDIRYGVSRIAYSKDFETLKVDFLSKLPEMLKMFEDRLCHKTYLNGDHVTHPDFMLYDALDVVLYMDPMCLDAFPKLVCFKKRIEAIPQIDKYLKSSKYIAWPLQGWQATFGGGDHPPKSDLIEGRIQLIKGPKGLGFSIAGGVGNQHIPGDNSIYVTKIIEGGAAHKDGKLQIGDKLLAVNNVCLEEVTHEEAVTALKNTSDFVYLKVAKP | 6.63 and 2.76 |  |
| GST-DLG2 #290.1 PDZ domain 2 fusion protein (protein) MSPILGYWKIKGLVQPTRLLLEYLEEKYEEHLYERDEGDKWRNKKFELGLEFPNLPYYIDGDVKLTQSMAIIRYIADKHNMLGGCPKERAEISMLEGAVLDIRYGVSRIAYSKDFETLKVDFLSKLPEMLKMFEDRLCHKTYLNGDHVTHPDFMLYDALDVVLYMDPMCLDAFPKLVCFKKRIEAIPQIDKYLKSSKYIAWPLQGWQATFGGGDHPPKSDLIEGREIKLFKGPKGLGFSIAGGVGNQHIPGDNSIYVTKIIDGGAAQKDGRLQVGDRLLMVNNYSLEEVTHEEAVAILKNTSEVVYLKVGNP | 9.17 and 13.4 | 1.78 A450 nm and 1.44 A450 nm |
| GST-Magi2 PDZ domain 1 fusion protein, Q86UL8 17-101 (protein) MSPILGYWKIKGLVQPTRLLLEYLEEKYEEHLYERDEGDKWRNKKFELGLEFPNLPYYIDGDVKLTQSMAIIRYIADKHNMLGGCPKERAEISMLEGAVLDIRYGVSRIAYSKDFETLKVDFLSKLPEMLKMFEDRLCHKTYLNGDHVTHPDFMLYDALDVVLYMDPMCLDAFPKLVCFKKRIEAIPQIDKYLKSSKYIAWPLQGWQATFGGGDHPPKSDLIEGRREKPLFTRDASQLKGTFLSTTLKKSNMGFGFTIIGGDEPDEFLQVKSVIPDGPAAQDGKMETGDVIVYINEVCVLGHTHADVVKLFQSVPIGQSVNLVLCRGYP | 11.6 and 7.23 | 2.39 A450 nm and 1.06 A450 nm |
| GST-PSD95 PDZ domain 2 fusion protein (protein) MSPILGYWKIKGLVQPTRLLLEYLEEKYEEHLYERDEGDKWRNKKFELGLEFPNLPYYIDGDVKLTQSMAIIRYIADKHNMLGGCPKERAEISMLEGAVLDIRYGVSRIAYSKDFETLKVDFLSKLPEMLKMFEDRLCHKTYLNGDHVTHPDFMLYDALDVVLYMDPMCLDAFPKLVCFKKRIEAIPQIDKYLKSSKYIAWPLQGWQATFGGGDHPPKSDLIEGREIKLIKGPKGLGFSIAGGVGNQHIPGDNSIYVTKIIEGGAAHKDGRLQIGDKILAVNSVGLEDVMHEDAVAALKNTYDVVYLKVAKP | 12.2 and 12.5 | 2.7 A450 nm and 1.31 A450 nm |
| GST-MAGI 1 PDZ domain 2 fusion protein (protein) MSPILGYWKIKGLVQPTRLLLEYLEEKYEEHLYERDEGDKWRNKKFELGLEFPNLPYYIDGDVKLTQSMAIIRYIADKHNMLGGCPKERAEISMLEGAVLDIRYGVSRIAYSKDFETLKVDFLSKLPEMLKMFEDRLCHKTYLNGDHVTHPDFMLYDALDVVLYMDPMCLDAFPKLVCFKKRIEAIPQIDKYLKSSKYIAWPLQGWQATFGGGDHPPKSDLIEGRHTKLRKSSRGFGFTVVGGDEPDEFLQIKSLVLDGPAALDGKMETGDVIVSVNDTCVLGHTHAQVVKIFQSIPIGASVDLELCR | 19.5 | 4.11 A450 nm |

Where “and” joins values, the source holds several entries; their conditions need not be identical. Equal values may be shown once.
